{
  "source": "ChEMBL document CHEMBL1150779",
  "about": "“Triazolopyrimidine-based dihydroorotate dehydrogenase inhibitors with potent and selective activity against the malaria parasite Plasmodium falciparum” (J Med Chem, 2008)",
  "key": {"[1]": {"biological_target": "Dihydroorotate dehydrogenase (quinone), mitochondrial (Plasmodium falciparum (isolate 3D7), UniProt Q08210, F227A)", "assay": "Inhibition of Plasmodium falciparum DHODH F227A mutant"}, "[2]": {"biological_target": "Dihydroorotate dehydrogenase (quinone), mitochondrial (Plasmodium falciparum (isolate 3D7), UniProt Q08210, R265A)", "assay": "Inhibition of Plasmodium falciparum DHODH R265A mutant"}},
  "note": "pIC50: −log10 of the molar value.",
  "data": [
    {"compound": "Cc1cc(Nc2ccc3ccccc3c2)n2ncnc2n1", "values": [
      {"measurement": "pIC50", "setting": "[1]", "value": 4.36},
      {"measurement": "pIC50", "setting": "[2]", "value": 5.21}
    ]}
  ]
}
